Data source: PubChem BioAssay AID504761 (Drosophila RNAi Screening Center, 2011)

- Screen: 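Insect host genes that dengue virus relies on to spread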 (primary screen)
- System: D.Mel-2 cells from Drosophila
- Reagents: long dsRNA against Drosophila genes
- Treatment: infection with dengue virus type 2; dose and infection time not stated
- Read-out: 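Per well on two replicate plates, imaging gave the percent of cells positive for viral envelope protein, ranked by infection, and a nuclear count of cells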
- Scale: infection score: higher = more virus-infected cells; cell count: higher = more cells in the well
- Active means: 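Very low infection ranking in both replicate wells (chance probability at most 0.065), then a retest showing infection dropped 1.5-fold or more at p below 0.05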
- Meaning of the calls: active = confirmed: knock-down lowers infection; inactive = not picked or not confirmed
The screen tested about 22,000 reagents; this is an unselected part of those with a known target gene and a result. Over the whole deposit, 116 (0.52%) are marked active. 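Calls depend on retest data that are not deposited; infection was ranked per plate without normalising between plates; the unit of the infection score is not given.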 Raw values are not corrected between plates. The numbers tell different reagents against one gene apart. Names joined by + are all predicted targets of the reagent. Not all columns of the deposit are shown. Reagent sequences are not shown. Not given: the amount of reagent, the time to read-out.

target	dsRNA no.	infection score, replicate 1	infection score, replicate 2	cell count, replicate 1	outcome
Or88a	1	1.8	6.76	6117	inactive
mRpS35	1	0.77	6.22	5097	inactive
Cyp310a1	1	14.9	7.75	6039	inactive
Cyp310a1	2	18.5	24.6	4966	inactive
nod	1	3.26	3.08	5827	inactive
nod	2	2.25	0.88	6137	inactive
CG31917 + Tfb5	1	3.6	4.91	6281	inactive
CG31917 + Tfb5	2	0.72	2.35	5954	inactive
ninaE	1	2.95	16	745	inactive
ninaE	2	1.89	2.01	5601	inactive
Uba1	1	7.07	12.1	3253	inactive
Uba1	2	24.3	16.7	2794	inactive
CG12470	1	1.02	2.3	6548	inactive
Sec61beta	1	20.9	6.38	6469	inactive
Sec61beta	2	0.03	0.22	5741	active
Sec61beta	3			386	inactive
Jhbp13	1	6.23	5.12	6855	inactive
CG9897 + asRNA:CR42742	1	6.99	5.79	6563	inactive
EMC4	1	7.52	8.26	6438	inactive
EMC4	2	22.3	1.35	5483	inactive
DIP-gamma	1	1.14	0.89	6031	active
CG30419	1	5.14	3.41	6052	inactive
CG30419	2	10	13.7	4898	inactive
CG30419	3	5.62	0.73	6873	inactive
CG11663	1	0.29	3.22	6468	inactive
CG10663	1	12.2	16.3	5643	inactive
CG16854	1	24.8	15.7	5682	inactive
Dh31	1	5.68	6.6	6641	inactive
CG31562 (retired record)	1	5.38	8.01	6381	inactive
CG31562 (retired record)	2	2.25	6.07	6125	inactive
CG31089	1	2.35	4.16	6309	inactive
Esyt2	1	2.2	1.45	6788	inactive
Argk2	1	2.13	7.22	5628	inactive
Argk2	2	2.99	21.8	6415	inactive
Argk2	3	16.8	2.34	3631	inactive
Coq7	1	4.94	17.6	1296	inactive
CG32299 + CG32298	1	4.2	2.92	6052	inactive
CG32299 + CG32298	2	3.28	5.56	6241	inactive
CG32299 + CG32298	3	3.09	0.61	5991	inactive
knon	1	25.7	15	5968	inactive
CG12644 (retired record)	1	6.98	2.14	6735	inactive
hdly	1	1.29	1.7	6580	inactive
Myo28B1	1	5.92	0.62	6110	inactive
Myo28B1	2	10.7	8.47	3226	inactive
Apl	1	2.95	0.97	6228	inactive
dpr10	1	2.6	3.6	6110	inactive
dpr10	2	4.7	2.78	5705	inactive
dpr10	3	6.62	7.56	5905	inactive
CG31759	1	1.56	2.23	6603	inactive
Est-Q	1	5.43	13.3	6430	inactive
CG17085 (retired record)	1	17.6	16.4	5245	inactive
CG17085 (retired record)	2	1.66	0.75	6862	active
CG17085 (retired record)	3	1.94	12.1	6701	inactive
Fdx2	1	4.95	5.14	6101	inactive
mof	1	2.11	2.56	6169	inactive
mof	2	4.36	3.25	7137	inactive
Cht6	1	1.69	0.78	6624	inactive
Cht6	2	1.51	1.89	6352	inactive
Cht6	3	0.82	7.42	6066	inactive
Cht6	4	20.6	24.9	6897	inactive
stac	1	0.26	0.27	6154	inactive
stac	2	3.57	2.95	5798	inactive
stac	3	3.15	1.89	6499	inactive
CG33514	1	13.4	16.4	6506	inactive
CG33514	2	4.12	2.14	6360	inactive
CG33514	3	1.6	5.39	6063	inactive
CG34431	1	10.4	3.25	6300	inactive
Khc	1	16	0.51	6014	inactive
Khc	2	6.5	0.69	5909	inactive
CG2006	1	3.2	4.37	6306	inactive
CG33263	1	0.37	0.23	6430	active
CG14448	1	10.3	9.77	6741	inactive
CG14448	2	4.01	6.58	6166	inactive
CG11413 + CG4622	1	19.9	6.09	5202	inactive
CG11413 + CG4622	2	9.31	1.39	6262	inactive
